Pooled drug test results. Numbers come from NIAID ChemDB, via PubChem.

Common to all: tests on isolated targets

Conditions beyond the fields shown may differ between rows. ICn is the concentration giving n% inhibition. Two numbers with a dash give a range or band. Blank or dashed fields: not listed here. Inhibition is in % at the dose shown (toxicity tests: loss of growth or viability).

compound,dose,target,organism,measure,method,strain or isolate,value
O=C1/C(=C/c2ccccc2O)Oc2cccc(O)c21,,HCV NS5B delta21,Hepatitis C virus,IC50,FRET,J4 genotype 1B,11.1 µM
O=C(N[C@@H](Cc1ccc(O)cc1)C(=O)O)c1cnn2c(C3CCCCC3)c(-c3ccc(Cl)cc3)cnc12,,RNA-dependent RNA polymerase,Hepatitis C virus,IC50,,,<1 µM
CC(C)c1ccc(/C=C2\Oc3cccc(O)c3C2=O)cc1,20 µM,HCV NS5B delta21,Hepatitis C virus,inhibition,FRET,J4 genotype 1B,30%
CC(C)C[C@@]1(C(=O)O)C[C@@H](c2nncs2)[C@H](c2nccs2)N1C(=O)c1ccc(C(C)(C)C)cc1,,RNA-dependent RNA polymerase,Hepatitis C virus,IC50,,,<50 µM
CCC(NC(=O)[C@H](CC1CCCCC1)NC(=O)[C@@H](NC(=O)[C@H](CC(C)C)NC(=O)[C@@H](CCC(=O)O)NC(=O)[C@H](CCC(=O)O)NC(=O)CCC(=O)O)[C@@H](C)CC)C(=O)C(F)(F)C(F)(F)F,,HCV NS3 protease,Hepatitis C virus,Ki,,,0.081 µM
CSc1ncc(C(=O)N(C)CCO)c(Nc2ccc3[nH]ncc3c2)n1,,Reverse transcription,Hepatitis B virus,IC50,,,~0.1 µg/mL
CC[C@H](C)[C@H](NC(=O)[C@H](CC(C)C)NC(=O)[C@@H](CCC(=O)O)NC(=O)CCC(=O)O)C(=O)N[C@@H](CC1CCCCC1)C(=O)NC1(c2nn[nH]n2)CC1,,HCV NS3 protease,Hepatitis C virus,Ki,,,10.2 µM
Cn1c(Cc2nc3ccc(C(N)=O)cc3[nH]2)nc2ccc(C(=O)NC(CP(=O)(O)O)C(=O)O)cc21,,NS3/NS4A serine protease,Hepatitis C virus,Ki,,,0.027–1 µM
O=C(Nc1ccc2[nH]ncc2c1)c1cc(NCCN2CCCC2)c(F)cc1F,1 µg/mL,Reverse transcriptase,Hepatitis B virus,inhibition,,,76%
Cc1noc([C@H]2C[C@@](CC(C)C)(C(=O)O)N(C(=O)c3ccc(C(C)(C)C)cc3)[C@H]2c2nccs2)n1,,RNA-dependent RNA polymerase,Hepatitis C virus,IC50,,,<50 µM
O=C(O)c1cc2nc(-c3ccc(Oc4ccccc4)cc3)cc(-c3ccccc3OCc3ccccc3)n2n1,,RNA-dependent RNA polymerase,Hepatitis C virus,IC50,,,1–10 µM
CSc1ncc(C(=O)N(C)C)c(Nc2ccc3[nH]ncc3c2)n1,,Reverse transcription,Hepatitis B virus,IC50,,,<0.1 µg/mL
Cc1ccc(C(=O)NCCc2ccccn2)c(Nc2ccc3[nH]ncc3c2)n1,,DNA polymerase,Hepatitis B virus,IC50,,,<0.1 µg/mL
OCc1nnc(-c2ccc(N3CC(Oc4ccccc4C(F)(F)F)C3)nn2)o1,,Nonstructural protein 3,Hepatitis C virus,IC50,fluorescence,,>100 µM
CCC[C@H](NC(=O)[C@H](CC1CCCCC1)NC(=O)[C@@H](NC(=O)[C@H](CC(C)C)NC(=O)[C@@H](CCC(=O)O)NC(=O)[C@H](CCC(=O)O)NC(=O)CCC(=O)O)[C@@H](C)CC)C(=O)NS(=O)(=O)c1ccccc1,,HCV NS3 protease,Hepatitis C virus,Ki,,,0.0136 µM
NC(=O)[C@H](Cc1ccc(O)cc1)NC(=O)c1cnn2c(C3CCCCC3)c(-c3ccc(F)cc3)cnc12,,RNA-dependent RNA polymerase,Hepatitis C virus,IC50,,,<1 µM
CSc1ncc(C(N)=O)c(Nc2ccc3cn[nH]c3c2)n1,,Reverse transcription,Hepatitis B virus,IC50,,,~0.1 µg/mL
COc1ccc2c(O[C@@H]3C[C@@H](C(=O)NC4(C(=O)O)CC4)N(C(=O)[C@@H](NC(=O)[C@@H](NC(C)=O)C4CCCCC4)C(C)C)C3)ccnc2c1,,NS3/NS4A serine protease,Hepatitis C virus,IC50,,,0.8 µM
O=C(NC(C(=O)O)c1cccc(O)c1)c1cnn2c(C3CCCCC3)c(-c3ccc(F)cc3)cnc12,,RNA-dependent RNA polymerase,Hepatitis C virus,IC50,,,<1 µM
O=C(Nc1ccc2[nH]ncc2c1)c1cc(NCCN2CCOCC2)c(F)cc1F,1 µg/mL,Reverse transcriptase,Hepatitis B virus,inhibition,,,79%
CC(C)C[C@@]1(C(=O)O)C[C@H](c2ncon2)[C@H](c2nccs2)N1C(=O)c1ccc(C(C)(C)C)cc1,,RNA-dependent RNA polymerase,Hepatitis C virus,IC50,,,<50 µM
O=C(N[C@H]1CCCCC/C=C\[C@@H]2C[C@@]2(C(=O)NS(=O)(=O)C2CC2)NC(=O)C2C[C@@H](OC(=O)N3Cc4cccc(F)c4C3)CN2C1=O)c1ccc2c(c1)B(O)OC2,,HCV NS3/4A 1a,Hepatitis C virus,IC50,FRET,,1 nM
O=C(Nc1ccc2[nH]ncc2c1)c1cc(NCCO)c(F)cc1F,0.1 µg/mL,Reverse transcriptase,Hepatitis B virus,inhibition,,,52%
COC(=O)[C@H](Cc1cnc[nH]1)NC(=O)c1cnn2c(C3CCCCC3)c(-c3ccc(F)cc3)cnc12,,RNA-dependent RNA polymerase,Hepatitis C virus,IC50,,,<1 µM
OCc1nnc(-c2ccc(N3CCC(Oc4ccccc4C(F)(F)F)CC3)nn2)o1,,Nonstructural protein 3,Hepatitis C virus,IC50,fluorescence,,>100 µM
CC(C)C[C@H](NC(=O)[C@@H](NC(=O)OC(C)(C)C)C1CCCC1)C(=O)N[C@@H](CC(F)F)C(=O)C(=O)O,,NS3 serine protease,Hepatitis C virus,IC50,,,0.38 µM
O=C(Nc1ccc2cn[nH]c2c1)c1cc(NCCc2ccccn2)c(F)cc1F,0.1 µg/mL,Reverse transcriptase,Hepatitis B virus,inhibition,,,38%
O=C(O)c1cnn2c(-c3cccc(-c4ccc(Cl)cc4)c3)ccnc12,,RNA-dependent RNA polymerase,Hepatitis C virus,IC50,,,>10 µM
CC(=O)N[C@@H](CC(=O)O)C(=O)N[C@@H](CCC(=O)O)C(=O)N[C@H](C(=O)N[C@@H](CCC(=O)O)C(=O)N[C@@H](CC1CCCCC1)C(=O)N[C@@H](CC(F)F)C(=O)O)C(c1ccccc1)c1ccccc1,,NS3/NS4A serine protease,Hepatitis C virus,Ki,,,0.02 µM
Cc1noc([C@H]2C[C@@](CC(C)C)(C(=O)O)N(C(=O)c3ccc(C(C)(C)C)c(Cl)c3)[C@H]2c2nccs2)n1,,RNA-dependent RNA polymerase,Hepatitis C virus,IC50,,,<50 µM
CC[C@H](CO)NC(=O)c1cnc(SC)nc1Nc1ccc2[nH]ncc2c1,,Reverse transcription,Hepatitis B virus,IC50,,,<0.1 µg/mL
O=C(CCCCCCCCCC(=O)Nc1ccc(-c2nc3ccccc3[nH]2)cc1)Nc1ccc(-c2nc3ccccc3[nH]2)cc1,,Nonstructural protein 3 NTPase/helicase,Hepatitis C virus,IC50,,,0.7 µM
O=C(Nc1ccc2cn[nH]c2c1)c1cc(NCCCn2ccnc2)c(F)cc1F,0.1 µg/mL,Reverse transcriptase,Hepatitis B virus,inhibition,,,45%
O=C(O)C(=O)Nc1cnn2c(C3CCCCC3)c(-c3ccc(OCc4ccccc4)cc3)cnc12,,RNA-dependent RNA polymerase,Hepatitis C virus,IC50,,,1–10 µM
Cc1noc([C@H]2C[C@@](CC(C)C)(C(=O)O)N(C(=O)c3ccc(C(C)(C)C)c(C)c3)[C@H]2c2nccs2)n1,,RNA-dependent RNA polymerase,Hepatitis C virus,IC50,,,<50 µM
O=C(O)CNC(=O)c1cc2nc(-c3ccc(Cl)cc3)cc(-c3ccc(Oc4ccccc4)cc3)n2n1,,RNA-dependent RNA polymerase,Hepatitis C virus,IC50,,,1–10 µM
Cc1ccc(C(=O)NC(C)(C)C)c(Nc2ccc3cn[nH]c3c2)n1,,DNA polymerase,Hepatitis B virus,IC50,,,<1 µg/mL
CC(C)C[C@@]1(C(=O)O)C[C@H](c2nc(Br)ns2)[C@H](c2nccs2)N1C(=O)c1ccc(C(C)(C)C)cc1,,RNA-dependent RNA polymerase,Hepatitis C virus,IC50,,,<50 µM
CO[C@@H]1[C@H](O)[C@@H](COP(=O)(O)OP(=O)(O)OP(=O)(O)O)O[C@H]1n1ccc(N)nc1=O,,Replicase complex,Hepatitis C virus,IC50,,,3.5 µM
CC[C@H](C)[C@H](NC(=O)[C@H](CC(C)C)NC(=O)[C@@H](CCC(=O)O)NC(=O)CCC(=O)O)C(=O)N[C@@H](CC1CCCCC1)C(=O)NC1(C(=O)NS(=O)(=O)c2ccccc2)CC1,,HCV NS3 protease,Hepatitis C virus,Ki,,,0.56 µM
COc1ccc(-c2nc3ccc(NCc4ccc(Cl)c(C(F)(F)F)c4)cc3n(CCNC(C)=O)c2=O)cc1,,Nonstructural protein 3,Hepatitis C virus,IC50,fluorescence,,>100 µM
COc1cc(C(=O)N2[C@@H](c3nccs3)[C@@H](c3noc(C)n3)C[C@@]2(CC(C)C)C(=O)O)ccc1C(C)(C)C,,RNA-dependent RNA polymerase,Hepatitis C virus,IC50,,,<50 µM
O=C(Nc1cc2c(cc1F)COB2O)N[C@H]1CCCCC/C=C\[C@@H]2C[C@@]2(C(=O)NS(=O)(=O)C2CC2)NC(=O)C2C[C@@H](OC(=O)N3Cc4cccc(F)c4C3)CN2C1=O,,HCV NS3/4A 1a,Hepatitis C virus,IC50,FRET,,<0.2 nM
COc1cc(C(=O)N2[C@@H](c3cscn3)[C@H](c3nc(C)no3)C[C@@]2(CC(C)C)C(=O)O)ccc1C(C)(C)C,,RNA-dependent RNA polymerase,Hepatitis C virus,IC50,,,<50 µM
CSc1ncc(C(=O)NCCN2CCOCC2)c(Nc2ccc3cn[nH]c3c2)n1,,Reverse transcription,Hepatitis B virus,IC50,,,<1 µg/mL